Experimental findings from article PMC11281344 (Viruses, 2024) are described below.

By UniProt entry, the sequences of proteins in these tests, tags left out. Residues count along the entry.
UniProt P03305, 1863-2332 limits assumed: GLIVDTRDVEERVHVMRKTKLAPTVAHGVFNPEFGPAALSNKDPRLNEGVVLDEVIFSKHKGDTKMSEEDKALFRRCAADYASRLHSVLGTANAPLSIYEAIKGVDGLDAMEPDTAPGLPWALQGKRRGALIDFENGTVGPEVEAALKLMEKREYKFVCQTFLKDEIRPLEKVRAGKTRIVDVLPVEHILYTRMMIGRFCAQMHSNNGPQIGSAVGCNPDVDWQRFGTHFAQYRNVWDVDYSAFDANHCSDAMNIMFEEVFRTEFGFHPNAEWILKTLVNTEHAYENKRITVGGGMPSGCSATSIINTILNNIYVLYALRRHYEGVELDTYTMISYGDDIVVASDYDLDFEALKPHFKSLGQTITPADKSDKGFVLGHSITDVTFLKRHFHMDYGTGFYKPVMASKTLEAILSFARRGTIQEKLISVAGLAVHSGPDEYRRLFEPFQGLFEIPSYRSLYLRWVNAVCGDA

For one series, the system named is BHK-21 cells. As to conditions: hamster.
For the next series, the target named is FMDV 3D^pol (Foot-and-mouth disease virus serotype O, UniProt P03305). Description: cell-based. The settings on record: IC50 of FMDV 3Dpol activity (GFP expression).
A short description of a further series: in vitro. The settings on record: hamster, Cytotoxicity (CC50).

In the series on BHK-21 cells, Brusatol came in with a half-maximal cytotoxic concentration (CC50) of 18.5 ± 1.27 µM.

In turn, `CC1=CC(=O)[C@@H](O)[C@]2(C)[C@H]3[C@@H](O)[C@H](O)[C@@]4(C)OC[C@@]35[C@@H](C[C@@H]12)OC(=O)[C@H](O)[C@]54O` [Bruceine D] displayed an IC50 against FMDV 3D^pol of 0.37 ± 0.44 µM. Besides, the CC50 in the series on BHK-21 cells and in “in vitro” was 4.51 ± 0.68 µM each time.

A word on the CC50: it is the concentration at which the toxic effect on the cells reaches its halfway point. A lower CC50 goes with harm at low concentration. The term IC50 denotes the midpoint of a concentration-inhibition curve. High values mean weaker potency, low ones greater potency.
